Measured values from several laboratories, pooled; numbers as filed in NIAID ChemDB.

All rows: tests on isolated targets; species: Pneumocystis carinii; target: DHFR; read-out: IC50

Neighbouring rows are from separate reports.

structure | result
CCCCCc1nc2nc(N)nc(N)c2nc1CCCCC | 1.5 µM
CC1(C)N=C(N)N=C(N)N1c1ccc(CN2C(N)=NC(N)NC2(C)C)cc1 | 2 µM
Nc1nc(N)c2nc(CCc3ccc(C(F)(F)F)cc3)cnc2n1 | 3.8 µM
Nc1nc2c(c(=O)[nH]1)C(c1ccccc1F)C([N+](=O)[O-])O2 | 50 µM
CCc1nc2nc(N)nc(N)c2nc1-c1ccccc1OC | 2 µM
COc1cc(N2C(N)=NC(N)=NC2(C)C)c(OC)cc1Cl | >60 µM
COc1ccc(OC)c(CCc2cnc3nc(N)nc(N)c3n2)c1 | 19.3 µM
COc1ccc(OC)c(N(C)Cc2cnc3nc(N)nc(N)c3c2C)c1 | 0.046 µM
COc1cc(N2C(N)=NC(N)=NC2(C)C)cc(OC)c1OC | >100 µM
Nc1nc2occ(-c3ccccc3F)c2c(=O)[nH]1 | 65 µM
Nc1nc(N)c2c(OCC(F)(F)C(F)(F)F)cccc2n1 | 54 µM
Nc1nc(N)c2nc(CCc3ccnc4ccccc34)cnc2n1 | 4.9 µM
COc1ccc(NCc2cnc3nc(N)nc(N)c3c2C)c(C)c1 | 0.176 µM
Nc1nc2c(c(=O)[nH]1)C(c1ccc(Cl)cc1)C([N+](=O)[O-])O2 | 21 µM
Nc1nc(N)c2nc(Cc3ccc(Cl)c(Cl)c3)c(Cc3ccc(Cl)c(Cl)c3)nc2n1 | 4.4 µM
Nc1nc2occ(-c3ccc(Cl)cc3)c2c(=O)[nH]1 | 14 µM
COc1ccc(OC)c(NCc2csc3nc(N)nc(N)c23)c1 | >10 µM
COc1cc(CCc2cnc3nc(N)nc(N)c3n2)cc(OC)c1OC | 6 µM
Nc1nc(N)c2c(OCC(F)(F)C(F)(F)C(F)(F)F)cccc2n1 | 71 µM
COc1ccc(Cl)cc1-c1coc2nc(N)[nH]c(=O)c12 | 9 µM
COc1cccc2nc(N)nc(N)c12 | 4.5 µM
Nc1nc(N)c2nc(CCc3ccc4ccccc4c3)cnc2n1 | 0.52 µM

Repeating the final 3 entries:

| structure | result |
|---|---|
| COc1ccc(Cl)cc1-c1coc2nc(N)[nH]c(=O)c12 | 9 µM |
| COc1cccc2nc(N)nc(N)c12 | 4.5 µM |
| Nc1nc(N)c2nc(CCc3ccc4ccccc4c3)cnc2n1 | 0.52 µM |

ICn is the concentration giving n% inhibition.